Compound potency records, mixed from different reports. Data source: NIAID ChemDB in PubChem.

Common to all: enzyme or target tests; organism: HIV-1; protein: Reverse transcriptase; method: nucleotide incorporation; read-out: Ki

An empty or dashed field is not shown.

C/C=C/c1cn([C@@H]2O[C@H](COP(=O)(O)OP(=O)(O)OP(=O)(O)O)[C@@H](O)[C@@H]2O)c(=O)[nH]c1=O ; strain or isolate: IIIB ; result: 0.08 µM
O=c1c2cccn2c2cccc(F)c2n1CCNC(=S)Nc1ccc(Br)cn1 ; mutations: RT-L100I ; result: 0.17 µM
O=c1cc(-c2ccccc2)oc2cc(O)c(O)c(O)c12 ; result: 2.52 µM
C[C@H](NC(=S)Nc1ccccn1)C1CCCCC1 ; strain or isolate: IIIB ; result: 100 µM
Cc1cc2c(cc1C)n1cccc1c(=O)n2CCNC(=S)Nc1ccc(Br)cn1 ; mutations: RT-V106A ; result: 0.03 µM
Nc1ccn([C@H]2CC[C@@H](COP(=O)(O)OP(=O)(O)OP(=O)(O)O)O2)c(=O)n1 ; strain or isolate: HXB2 ; mutations: RT-L74V T215Y ; result: 75 µM
S=C(NCCc1ccc(Br)cc1)Nc1ccc(Br)cn1 ; result: 6.3 µM
Nc1nc(=O)n([C@@H]2CS[C@H](COP(=O)(O)OP(=O)(O)OP(=O)(O)O)O2)cc1F ; strain or isolate: HXB2 ; result: 2.9 µM
S=C(NCCc1cccc(Cl)c1)Nc1ccc(Br)cn1 ; result: 4.7 µM
Nc1ccn([C@H]2CS[C@@H](COP(=O)(O)OP(=O)(O)OP(=O)(O)O)O2)c(=O)n1 ; strain or isolate: HXB2D ; result: 1.16 µM
O=c1c2cccn2c2cc(Cl)c(Cl)cc2n1CCNC(=S)Nc1ccc(Br)cn1 ; mutations: RT-V106A ; result: 0.02 µM
Nc1ncnc2c1ncn2CC(CF)OCP(=O)(O)OP(=O)(O)OP(=O)(O)O ; result: 0.034 µM
Nc1ccn([C@H]2CC[C@@H](COP(=O)(O)OP(=O)(O)OP(=O)(O)O)O2)c(=O)n1 ; strain or isolate: HXB2D ; result: 0.14 µM
CCCc1cn([C@H]2C[C@H](O)[C@@H](COP(=O)(O)OP(=O)(O)OP(=O)(O)O)O2)c(=O)[nH]c1=O ; strain or isolate: IIIB ; result: 0.43 µM
O=C1c2ccncc2C(=O)N1CCNC(=S)Nc1ccc(Br)cn1 ; result: 0.35 µM
Cc1cn([C@H]2C[C@H](N=[N+]=[N-])[C@@H](COP(=O)(O)OP(=O)(O)OP(=O)(O)O)O2)c(=O)nc1N ; result: 0.0093 µM
O=c1[nH]c(=O)n([C@H]2C[C@H](O)[C@@H](COP(=O)(O)OP(=O)(O)OP(=O)(O)O)O2)cc1CO ; strain or isolate: IIIB ; result: 0.8 µM

2 of the rows above, restated:

| SMILES | strain or isolate | mutations | result |
|---|---|---|---|
| Nc1ccn([C@H]2CC[C@@H](COP(=O)(O)OP(=O)(O)OP(=O)(O)O)O2)c(=O)n1 | HXB2D |  | 0.14 µM |
| S=C(NCCc1cccc(Cl)c1)Nc1ccc(Br)cn1 |  |  | 4.7 µM |

Neighbouring rows are from separate reports.